Test results as given in US9463216B2 (priority 2012, dated 2016).

Protein sequences, listed by entry. Tags and fused reporters are not part of them. Residues count along the entry.
UniProt P13423, 30-764 limits assumed: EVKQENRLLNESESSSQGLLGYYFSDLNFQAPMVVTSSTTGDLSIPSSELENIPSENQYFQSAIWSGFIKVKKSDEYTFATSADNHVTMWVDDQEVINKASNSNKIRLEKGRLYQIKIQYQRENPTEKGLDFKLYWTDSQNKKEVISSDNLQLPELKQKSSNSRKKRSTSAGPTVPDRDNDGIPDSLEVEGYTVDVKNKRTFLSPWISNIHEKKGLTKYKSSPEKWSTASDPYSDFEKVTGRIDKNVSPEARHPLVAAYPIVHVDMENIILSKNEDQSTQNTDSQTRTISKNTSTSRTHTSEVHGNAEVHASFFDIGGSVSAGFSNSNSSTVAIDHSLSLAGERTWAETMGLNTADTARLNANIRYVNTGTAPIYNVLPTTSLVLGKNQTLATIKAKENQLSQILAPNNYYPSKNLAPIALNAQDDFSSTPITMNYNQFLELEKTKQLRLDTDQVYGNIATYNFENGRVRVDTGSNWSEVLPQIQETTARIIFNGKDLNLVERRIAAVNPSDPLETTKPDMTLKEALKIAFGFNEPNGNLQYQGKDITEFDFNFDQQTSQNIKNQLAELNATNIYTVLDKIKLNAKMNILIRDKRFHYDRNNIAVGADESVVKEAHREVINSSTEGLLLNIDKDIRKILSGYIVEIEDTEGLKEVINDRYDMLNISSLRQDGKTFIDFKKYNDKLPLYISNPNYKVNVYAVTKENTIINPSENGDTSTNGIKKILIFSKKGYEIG
UniProt Q51693, 27-528 limits assumed: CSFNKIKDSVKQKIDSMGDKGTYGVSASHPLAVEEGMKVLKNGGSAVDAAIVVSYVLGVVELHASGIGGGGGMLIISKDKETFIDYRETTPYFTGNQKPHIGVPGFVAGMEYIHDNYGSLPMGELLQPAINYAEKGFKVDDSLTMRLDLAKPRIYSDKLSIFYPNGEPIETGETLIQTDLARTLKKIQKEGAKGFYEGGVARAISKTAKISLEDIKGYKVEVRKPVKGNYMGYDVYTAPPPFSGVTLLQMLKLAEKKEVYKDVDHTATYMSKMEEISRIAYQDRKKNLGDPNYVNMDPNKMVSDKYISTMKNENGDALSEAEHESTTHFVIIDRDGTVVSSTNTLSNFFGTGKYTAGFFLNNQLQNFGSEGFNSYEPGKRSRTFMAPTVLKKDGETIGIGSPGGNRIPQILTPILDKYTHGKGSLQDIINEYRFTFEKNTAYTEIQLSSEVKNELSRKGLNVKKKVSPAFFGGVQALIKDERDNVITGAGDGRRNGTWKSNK

Experiments:
lethal toxin (PA + LF) = lethal toxin (PA + LF) (Bacillus anthracis, UniProt P13423); details: for IC50: read-out: Half-maximal inhibitory values
CapD = CapD (Bacillus anthracis, UniProt Q51693)

| Substance | inhibitory activity (LT-mediated cytotoxicity) after cleavage by Cap D (lethal toxin (PA + LF)) | IC50 (lethal toxin (PA + LF)) [µM] | digestion / cleavage by CapD (CapD) |
| --- | --- | --- | --- |
| γ-DLPGA [Compound 1] | not | 0.68 ± 0.07 |  |
| γ-DPGA [Compound 2] | abolishes inhibitory activity | 12 ± 1 | susceptible to enzymatic cleavage |
